## Potato spindle tuber viroid, stem 15: variant abundance in plants

Source: Wu et al. 2024 (doi:10.1371/journal.ppat.1012142), supplementary data.

PSTVd intermediate strain, stem 15: wild type CUGGAGCGAUCGCUUCGG, pool pattern CUGGAGCGAUNGNNUNNG; upper and lower strand joined, each 5' to 3', the first 9 letters being the upper strand.

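A pool of all variants was put on leaves of three Nicotiana benthamiana plants. Samples came from the inoculated region at 5 days, the leaf margin at 10 and upper systemic leaves at 12.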

Values are reads per thousand in the sample; higher means more abundant, 0 means not found.
Each value is the mean of three plants.
"Pool" is the share in the plasmid pool used as inoculum, on the same scale.
The inoculated region was read from the minus strand, the other sites from the plus strand.
IR is the inoculated region, LM the leaf margin, Sys the systemic leaves.
The authors trace changes outside the varied positions to PCR and sequencing errors or to mutation in the plant; presence does not show that a variant is infectious alone.
Wild type was 10.2 per thousand in the pool and the most common sequence in every sample (inoculated region 285, 367, 312; leaf margin 785, 865, 782; systemic leaves 854, 898, 915).
Samples held 36,693 to 63,082 reads, so the smallest values rest on one or two reads.

CUGGAGCGAUGGCAUAAG (pool 0.954) gave IR 0.307; LM 0.0676; Sys 0.
CUGGAGCGAUUGCGUCAG (pool 0.937) gave IR 0.295; LM 0; Sys 0.
CUGGAGCGAUAGUCUGGG (pool 0.614) gave IR 0.330; LM 0.0207; Sys 0.
CUGGAGCGAUCGGGUUGG (pool 0.905) gave IR 0.245; LM 0.0175; Sys 0.
CUGGAGCGAUAGCCUCAG (pool 1.05) gave IR 0.532; LM 0.0350; Sys 0.
CUGGAGCGAUCGGUUGAG (pool 0.986) gave IR 0.292; LM 0.0367; Sys 0.
CUGGAGCGAUAGAAUGGG (pool 1.81) gave IR 0.592; LM 0.0388; Sys 0.00739.
CUGGAGCGAUGGGCUCGG (pool 1.07) gave IR 0.340; LM 0.0573; Sys 0.
CUGGAGCGAUAGAUUAAG (pool 0.970) gave IR 0.279; LM 0.0260; Sys 0.
CUGGAGCGAUUGGGUGCG (pool 0.743) gave IR 0.235; LM 0.0388; Sys 0.
CUGGAGCGAUGGGCUACG (pool 0.776) gave IR 0.344; LM 0.0908; Sys 0.
CUGGAGCGAUCGCGUGUG (pool 0.889) gave IR 0.276; LM 0.0320; Sys 0.
CUGGAGCGAUCGGGUCCG (pool 1.81) gave IR 0.835; LM 0.0388; Sys 0.00664.
CUGGAGCGAUUGUUUUGG (pool 0.760) gave IR 1.68; LM 0.0325; Sys 0.
CUGGAGCGAUAGUAUCUG (pool 0.743) gave IR 0.368; LM 0.0578; Sys 0.
CUGGAGCGAUAGAAUUGG (pool 0.824) gave IR 0.315; LM 0.00908; Sys 0.
CUGGAGCGAUGGCUUACG (pool 0.646) gave IR 0.341; LM 0.0320; Sys 0.
CUGGAGCGAUUGACUAGG (pool 0.824) gave IR 0.254; LM 0.0519; Sys 0.
CUGGAGCGAUCGAAUCCG (pool 0.840) gave IR 0.294; LM 0.0516; Sys 0.
CUGGAGCGAUAGAGUUUG (pool 0.937) gave IR 0.232; LM 0.0388; Sys 0.
CUGGAGCGAUCGCUUUGG (pool 2.25) gave IR 12.3; LM 11.8; Sys 7.49.
CUGGAGCGAUAGUGUCUG (pool 0.711) gave IR 0.266; LM 0.0349; Sys 0.
CUGGAGCGAUCGCGUCUG (pool 0.857) gave IR 0.231; LM 0.0479; Sys 0.00660.
CUGGAGCGAUAGUAUCAG (pool 0.840) gave IR 0.240; LM 0.0302; Sys 0.
CUGGAGCGAUAGCUUGCG (pool 0.663) gave IR 0.274; LM 0.0403; Sys 0.
CUGGAGCGAUAGUGUGUG (pool 0.840) gave IR 0.266; LM 0.00689; Sys 0.
CUGGAGCGAUGGACUUUG (pool 1.10) gave IR 0.585; LM 0.0144; Sys 0.
CUGGAGCGAUCGUAUGGG (pool 1.07) gave IR 0.264; LM 0.0303; Sys 0.
CUGGAGCGAUGGAUUCGG (pool 0.776) gave IR 0.392; LM 0.0414; Sys 0.00660.
CUGGAGCGAUCGUUUAAG (pool 1.05) gave IR 0.516; LM 0.0378; Sys 0.
CUGGAGCGAUCGUGUCCG (pool 0.760) gave IR 0.261; LM 0; Sys 0.
CUGGAUCGAUAGACUCUG (pool 0.0162) gave IR 0; LM 0; Sys 0.

Excerpt, the final 4 entries:

- CUGGAGCGAUGGAUUCGG (pool 0.776) = IR 0.392; LM 0.0414; Sys 0.00660
- CUGGAGCGAUCGUUUAAG (pool 1.05) = IR 0.516; LM 0.0378; Sys 0
- CUGGAGCGAUCGUGUCCG (pool 0.760) = IR 0.261; LM 0; Sys 0
- CUGGAUCGAUAGACUCUG (pool 0.0162) = IR 0; LM 0; Sys 0